The source of these data is patent US9920088B2, “Triterpene derivative and its anti-influenza use” (Peking University, priority 2012, dated 2018).

The test system of this data set is MDCK cells. Put plainly: Cytotoxicity (CellTiter-Glo), MDCK cells.

Consider “echinocystic acid [EA, reference compound]”, for which the “cytotoxicity” value (50 μM) is reported as “obvious cytotoxicity”. In addition, for the setting “Table 5, 50 μM, 48 h, DMSO = 100”, the “Cell viability(%)” value stood at 73.5%.
